Where “and” joins values, the source holds several entries; their conditions need not be identical. Identical values can stand only once.
Columns and labels:
Experiment in all cases: MIC, broth microdilution
Salmonella spp. GC 566 = system: Salmonella spp. GC 566
Salmonella spp. GC 235 = system: Salmonella spp. GC 235
S. cholerasius GC 1355 = system: S. cholerasius GC 1355

SMILES | MINIMAL INHIBITORY CONCENTRATION MIC (Salmonella spp. GC 566; pre-incubated in Mouse Serum) | MINIMAL INHIBITORY CONCENTRATION MIC (Salmonella spp. GC 566; pre-incubated in Water) | MINIMAL INHIBITORY CONCENTRATION MIC (Salmonella spp. GC 235; pre-incubated in Mouse Serum) | MINIMAL INHIBITORY CONCENTRATION MIC (Salmonella spp. GC 235; pre-incubated in Water) | MINIMAL INHIBITORY CONCENTRATION MIC (S. cholerasius GC 1355; pre-incubated in Mouse Serum) | MINIMAL INHIBITORY CONCENTRATION MIC (S. cholerasius GC 1355; pre-incubated in Water) | MINIMAL INHIBITORY CONCENTRATION MIC (Salmonella spp. GC 566; pre-incubated in Human Serum) | MINIMAL INHIBITORY CONCENTRATION MIC (Salmonella spp. GC 235; pre-incubated in Human Serum) | MINIMAL INHIBITORY CONCENTRATION MIC (S. cholerasius GC 1355; pre-incubated in Human Serum)
CCCCN(CC(=O)Nc1cc(N(C)C)c2c(c1O)C(=O)C1=C(O)[C@]3(O)C(=O)C(C(N)=O)=C(O)[C@@H](N(C)C)[C@@H]3C[C@@H]1C2)C(=O)OCOC(=O)c1ccc(-c2ccccc2)cc1 [Example 21, ({[(2-{[(5aR,6aS,7S,10aS)-9-(aminocarbonyl)-4,7-bis(dimethylamino)-1,8,10a,11-tetrahydroxy-10,12-dioxo-5,5a,6,6a,7,10,10a,12-octahydrotetracen-2-yl]amino}-2-oxoethyl)(butyl)amino]carbonyl}oxy)methyl 1,1′-biphenyl-4-carboxylate] | 4 UG/ML | >64 UG/ML | 2 UG/ML | >64 UG/ML | 16 UG/ML | >64 UG/ML | – | – | –
CCCCN(CC(=O)Nc1cc(N(C)C)c2c(c1O)C(=O)C1=C(O)[C@]3(O)C(=O)C(C(N)=O)=C(O)[C@@H](N(C)C)[C@@H]3C[C@@H]1C2)C(=O)OCOC(=O)c1cc(C)cc(C)c1 [Example 22, ({[(2-{[(5aR,6aS,7S,10aS)-9-(aminocarbonyl)-4,7-bis(dimethylamino)-1,8,10a,11-tetrahydroxy-10,12-dioxo-5,5a,6,6a,7,10,10a,12-octahydrotetracen-2-yl]amino}-2-oxoethyl)(butyl)amino]carbonyl}oxy)methyl 3,5-dimethylbenzoate] | 4 UG/ML | >64 UG/ML | 2 UG/ML | >64 UG/ML | 16 UG/ML | >64 UG/ML | – | – | –
CCCCN(CC(=O)Nc1cc(N(C)C)c2c(c1O)C(=O)C1=C(O)[C@]3(O)C(=O)C(C(N)=O)=C(O)[C@@H](N(C)C)[C@@H]3C[C@@H]1C2)C(=O)OCOC(=O)c1cccs1 [Example 23, ({[(2-{[(5aR,6aS,7S,10aS)-9-(aminocarbonyl)-4,7-bis(dimethylamino)-1,8,10a,11-tetrahydroxy-10,12-dioxo-5,5a,6,6a,7,10,10a,12-octahydrotetracen-2-yl]amino}-2-oxoethyl)(butyl)amino]carbonyl}oxy)methyl thiophene-2-carboxylate] | 4 UG/ML | >64 UG/ML | 2 UG/ML | >64 UG/ML | 16 UG/ML | >64 UG/ML | – | – | –
CCCN(CC(=O)Nc1cc(N(C)C)c2c(c1O)C(=O)C1=C(O)[C@]3(O)C(=O)C(C(N)=O)=C(O)[C@@H](N(C)C)[C@@H]3C[C@@H]1C2)C(=O)OCOC(=O)c1ccc(-c2ccccc2)cc1 [Example 24, ({[(2-{[(5aR,6aS,7S,10aS)-9-(aminocarbonyl)-4,7-bis(dimethylamino)-1,8,10a,11-tetrahydroxy-10,12-dioxo-5,5a,6,6a,7,10,10a,12-octahydrotetracen-2-yl]amino}-2-oxoethyl)(propyl)amino]carbonyl}oxy)methyl 1,1′-biphenyl-4-carboxylate] | 2 UG/ML | >64 UG/ML | 1 UG/ML | >64 UG/ML | 32 UG/ML | >64 UG/ML | – | – | –
CCCN(CC(=O)Nc1cc(N(C)C)c2c(c1O)C(=O)C1=C(O)[C@]3(O)C(=O)C(C(N)=O)=C(O)[C@@H](N(C)C)[C@@H]3C[C@@H]1C2)C(=O)OCOC(=O)c1cccs1 [Example 25, ({[(2-{[(5aR,6aS,7S,10aS)-9-(aminocarbonyl)-4,7-bis(dimethylamino)-1,8,10a,11-tetrahydroxy-10,12-dioxo-5,5a,6,6a,7,10,10a,12-octahydrotetracen-2-yl]amino}-2-oxoethyl)(propyl)amino]carbonyl}oxy)methyl thiophene-2-carboxylate] | 4 UG/ML | >64 UG/ML | 2 UG/ML | >64 UG/ML | 32 UG/ML | >64 UG/ML | – | – | –
CCCN(CC(=O)Nc1cc(N(C)C)c2c(c1O)C(=O)C1=C(O)[C@]3(O)C(=O)C(C(N)=O)=C(O)[C@@H](N(C)C)[C@@H]3C[C@@H]1C2)C(=O)OCOC(=O)c1cc(C)cc(C)c1 [Example 26, ({[(2-{[(5aR,6aS,7S,10aS)-9-(aminocarbonyl)-4,7-bis(dimethylamino)-1,8,10a,11-tetrahydroxy-10,12-dioxo-5,5a,6,6a,7,10,10a,12-octahydrotetracen-2-yl]amino}-2-oxoethyl)(propyl)amino]carbonyl}oxy)methyl 3,5-dimethylbenzoate] | 4 UG/ML | >64 UG/ML | 2 UG/ML | >64 UG/ML | 32 UG/ML | >64 UG/ML | – | – | –
CCCN(CC(=O)Nc1cc(N(C)C)c2c(c1O)C(=O)C1=C(O)[C@]3(O)C(=O)C(C(N)=O)=C(O)[C@@H](N(C)C)[C@@H]3C[C@@H]1C2)C(=O)OCOC(=O)c1ccsc1 [Example 27, ({[(2-{[(5aR,6aS,7S,10aS)-9-(aminocarbonyl)-4,7-bis(dimethylamino)-1,8,10a,11-tetrahydroxy-10,12-dioxo-5,5a,6,6a,7,10,10a,12-octahydrotetracen-2-yl]amino}-2-oxoethyl)(propyl)amino]carbonyl}oxy)methyl thiophene-3-carboxylate] | 1 UG/ML | >64 UG/ML | 1 UG/ML | >64 UG/ML | 16 UG/ML | >64 UG/ML | – | – | –
CCCN(CC(=O)Nc1cc(N(C)C)c2c(c1O)C(=O)C1=C(O)[C@]3(O)C(=O)C(C(N)=O)=C(O)[C@@H](N(C)C)[C@@H]3C[C@@H]1C2)C(=O)OCOC(=O)c1ccc(C(C)(C)C)cc1 [Example 28, ({[(2-{[(5aR,6aS,7S,10aS)-9-(aminocarbonyl)-4,7-bis(dimethylamino)-1,8,10a,11-tetrahydroxy-10,12-dioxo-5,5a,6,6a,7,10,10a,12-octahydrotetracen-2-yl]amino}-2-oxoethyl)(propyl)amino]carbonyl}oxy)methyl 4-tert-butylbenzoate] | 2 UG/ML | >64 UG/ML | 0.50 UG/ML | >64 UG/ML | 16 UG/ML | >64 UG/ML | – | – | –
CN(C)c1cc(NC(=O)CN(C(=O)OCOC(=O)CC(C)(C)C)C(C)(C)C)c(O)c2c1C[C@H]1C[C@H]3[C@H](N(C)C)C(O)=C(C(N)=O)C(=O)[C@@]3(O)C(O)=C1C2=O [Example 42, ({[(2-{[(5aR,6aS,7S,10aS)-9-(aminocarbonyl)-4,7-bis(dimethylamino)-1,8,10a,11-tetrahydroxy-10,12-dioxo-5,5a,6,6a,7,10,10a,12-octahydrotetracen-2-yl]amino}-2-oxoethyl)(tert-butyl)amino]carbonyl}oxy)methyl 3,3-dimethylbutanoate] | 32 UG/ML and >64 UG/ML | >64 UG/ML | – | >64 UG/ML | 64 UG/ML and >64 UG/ML | >64 UG/ML | – | – | –
CN(C)c1cc(NC(=O)CN(C(=O)OCOC(=O)c2ccc(C(C)(C)C)cc2)C(C)(C)C)c(O)c2c1C[C@H]1C[C@H]3[C@H](N(C)C)C(O)=C(C(N)=O)C(=O)[C@@]3(O)C(O)=C1C2=O [Example 43, ({[(2-{[(5aR,6aS,7S,10aS)-9-(aminocarbonyl)-4,7-bis(dimethylamino)-1,8,10a,11-tetrahydroxy-10,12-dioxo-5,5a,6,6a,7,10,10a,12-octahydrotetracen-2-yl]amino}-2-oxoethyl)(tert-butyl)amino]carbonyl}oxy)methyl 4-tert-butylbenzoate] | 2 UG/ML | >64 UG/ML | 0.50 UG/ML | >64 UG/ML | 4 UG/ML | >64 UG/ML | >64 UG/ML | >64 UG/ML | >64 UG/ML
CCC(C)(C)C(=O)OCOC(=O)N(CC(=O)Nc1cc(N(C)C)c2c(c1O)C(=O)C1=C(O)[C@]3(O)C(=O)C(C(N)=O)=C(O)[C@@H](N(C)C)[C@@H]3C[C@@H]1C2)C(C)(C)C [Example 44, ({[(2-{[(5aR,6aS,7S,10aS)-9-(aminocarbonyl)-4,7-bis(dimethylamino)-1,8,10a,11-tetrahydroxy-10,12-dioxo-5,5a,6,6a,7,10,10a,12-octahydrotetracen-2-yl]amino}-2-oxoethyl)(tert-butyl)amino]carbonyl}oxy)methyl 2,2-dimethylbutanoate] | 8 UG/ML | >64 UG/ML | 4 UG/ML | >64 UG/ML | 16 UG/ML | >64 UG/ML | >64 UG/ML | >64 UG/ML | >64 UG/ML
